Measured values from publication PMC6422396, “Amyloid properties of the yeast cell wall protein Toh1 and its interaction with prion proteins Rnq1 and Sup35” (Prion, 2018).

Target: T1, Sup35NM-CFP (S. cerevisiae, UniProt P05453 1-253)
T1 construct: Sup35 (translation termination factor eRF3) of S. cerevisiae, NM-domain (prion-forming domain); The cells also hold endogenous Sup35 ([PSI+] prion); also called Sup35 prion-forming domain fused to CFP; source: S. cerevisiae 74-D694, from pCUP-NM-CFP (pRS313 based), in cells
T1 sequence (looked up): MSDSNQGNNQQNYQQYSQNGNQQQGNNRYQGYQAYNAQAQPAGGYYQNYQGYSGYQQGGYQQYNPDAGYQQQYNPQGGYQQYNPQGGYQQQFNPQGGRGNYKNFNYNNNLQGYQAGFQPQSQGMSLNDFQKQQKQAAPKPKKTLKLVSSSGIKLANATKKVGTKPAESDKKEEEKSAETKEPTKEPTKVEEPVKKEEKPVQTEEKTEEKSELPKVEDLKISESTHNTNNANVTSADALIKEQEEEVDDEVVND
Assay: FRET or BRET

B1: Toh1(20–365)-YFP hybrid protein (domain or fragment, S. cerevisiae, UniProt P46992 20-365, looked up)
chain: SGPQSYQKLDFTNVGFTGSYVDVNKFKDITNNESCTCEVGDRVWFSGKNAPLADYLSVHFRGPLKLKQFAFYTSPGFTVNNSRSSSDWNRLAYYESSSKTADNVTFLNHGGEASPCLGNALSYASSNGTGSASEATVLADGTLISSDQEYIIYSNVSCPKSGYDKGCGVYRSGIPAYYGYGGTTKMFLFEFEMPTETEKNSSSIGYYDLPAIWLLNDHIARTSQYPTNANCSCWASGCGEYDIFEAMNGTEKNHLYSTFHTFQGIEDLGTGIQSYGYITRNTTGTMKGGVVFDSSGNVVSFISDATPFNGTVSADTVNDLLAAIPENETYSSQLMSISATAPSTTS
notes: Toh1, GPI-anchored cell wall protein of S. cerevisiae, internal fragment amino acids 20–365, without the N-terminal signal peptide and the C-terminal peptide
B1 gave an FRET efficiency of 3.9%.
